Laboratory results: ChEMBL document CHEMBL5303710, “ECBD screening data for assay EOS300044” (2022)

Molecular target: Replicase polyprotein 1ab (Severe acute respiratory syndrome coronavirus 2) (UniProt P0DTD1)
Experiment: Inhibition of SARS-CoV-2 3CL-Pro proteolytic cleavage of a dual-labeled substrate by FRET at 1mM DTT.
Type: functional
Set-up: assay stage

Molecule CN1CCN(C2=C(Cl)C(=O)N(c3ccc(Cl)c(Cl)c3)C2=O)CC1 has an IC50 relative of 1560 nM.
